These substances were tested against HA glycoprotein of A/Beijing/01/2003 (H5N1, clade 7) (influenza A virus A/Beijing/01/2003 (H5N1)).

Substance	IC50 of neutralisation of pseudovirus bearing this HA [ng/mL]
65C6, full-length human IgG1 (antibody)	6
100F4, full-length human IgG1 (antibody)	37
AVFluIgG03, full-length human IgG1 (antibody)	3
